Data taken from patent US8912343B2, “Solid forms of (1r,4r)-6′-fluoro-(N, N-dimethyl)-4-phenyl-4′,9′-dihydro-3′H-spiro[cyclohexane-1,1′-pyrano-[3,4,b]indol]-4-amine and sulfuric acid” (dated 2014).

Experiment: Physical and chemical stability (storage, purity by HPLC, PXRD)

(1r,4r)-6′-fluoro-N,N-dimethyl-4-phenyl-4′,9′-dihydro-3′H-spiro[cyclohexane-1,1′-pyrano[3,4,b]indol]-4-amine sulfate
Purity after 1 week at 80° C. (closed vials): 99.8 area % | Purity after 4 weeks at 40° C., 75% r.h. (open vials): 99.7 area % | Ref. Purity (reference, before storage): 100.0 area %
